# Laboratory results published in paper PMC3145792, “Structural Basis of Chemokine Sequestration by CrmD, a Poxvirus-Encoded Tumor Necrosis Factor Receptor” (2011).
# “And” between values parts separate entries of the source, which are not always exact repeats. Identical values can stand only once.
# Molecular target: SECRET domain (smallpox virus-encoded chemokine receptor domain) of the vTNFR CrmD encoded by ectrom (ectromelia virus)
# Test: SPR
substance,measurement,value
chemokine domain of human CX3CL1 (residues 1-76) (from UniProt P78423 25-100) (domain or fragment),Kd,421 nM and 937 nM and 680 nM
